Measured values from several laboratories, pooled; numbers as filed in NIAID ChemDB.

All rows: target-level tests; species: HIV-1; target: Reverse transcriptase; measure: fold resistance

Fold resistance has wild type as its base.

| SMILES | strain or isolate | mutations | read by | result |
|---|---|---|---|---|
| Cc1ccc(-n2c(SCC(=O)Nc3ccc(S(=O)(=O)NCCC(=O)O)cc3Cl)nnc2C(F)F)c2c1CCCC2 |  | RT-Y181C | nucleotide incorporation / radiometric | >2 |
| CCN1c2ncc(CCOc3ccc(-c4ccc(CC(=O)O)cc4Cl)cc3C)cc2C(=O)N(C)c2cccnc21 | IIIB | RT-K103N Y181C | nucleotide incorporation / radiometric | 1 |
| Nc1nc2c(ncn2[C@H]2CC[C@@H](COP(=O)(O)OP(=O)(O)OP(=O)(O)O)O2)c(=O)[nH]1 |  | RT-K65R |  | 1 |
| CC(C)=CCOc1cc(NC(=S)c2ccsc2C)ccc1Cl |  | RT-Y181I |  | 6 |
| CCN1c2ncc(CCOc3cccc4c3ccc[n+]4[O-])cc2C(=O)N(C)c2ccc(Cl)nc21 | RT -K103N | RT-K103N | nucleotide incorporation / radiometric | 5.1 |
| CCN1c2ncc(CCOc3ccc(-c4ccc(O)c(C(=O)O)c4)cc3C)cc2C(=O)N(C)c2cccnc21 | IIIB | RT-K103N Y181C | nucleotide incorporation / radiometric | >1 |
| CCN1c2ncc(CCc3ccccc3)cc2C(=O)N(C)c2ccc(Cl)nc21 | IIIB | RT-K103N | RT activity | 38 |
| CCN1c2ncc(CCOc3ccc(C(=O)O)c4ccccc34)cc2C(=O)Nc2c(C)ccnc21 |  | RT-K103N Y181C | nucleotide incorporation / radiometric | 1–10 |
| CC[C@H]1C(=O)Nc2ccc(F)cc2N1C(=O)OC(C)C |  | RT-W229F | radiometric | 2 |
| O=c1cc(Cc2ccccc2)nc(NCCCCO)[nH]1 |  | RT-V106A |  | 0.183 |
| CCN1c2ncc(CCOc3ccc(S(=O)(=O)Nc4ccc(C(=O)O)cc4)cc3C)cc2C(=O)N(C)c2cccnc21 | IIIB | RT-K103N Y181C | nucleotide incorporation / radiometric | 1 |
| CCC(=O)c1ccc(F)c([C@H]2C[C@H]2NC(=O)Nc2ccc(Br)cn2)c1O | IIIB | RT-K103N |  | 2.92 |
| CCN1c2ncc(CCOc3ccc(C(=O)O)c4c3CCC4)cc2C(=O)N(C)c2ccc(Cl)nc21 |  | RT-K103N Y181C | nucleotide incorporation / radiometric | 1 |
| Nc1ccn([C@@H]2CS[C@H](COP(=O)(O)OP(=O)(O)OP(=O)(O)O)O2)c(=O)n1 |  | RT-K65R | nucleotide incorporation | 7.33 |
| CC(C)=CCN1Cc2cc(Cl)cc3[nH]c(=O)n(c23)C[C@@H]1C |  | RT-Y181C | RT activity | 60 |
| CCN1c2ncc(CCOc3ccc(/C=C(\C)C(=O)O)c4ccccc34)cc2C(=O)N(C)c2cccnc21 |  | RT-Y188L | nucleotide incorporation / radiometric | >10 |
| CCOC(=O)C(=O)CC(=O)/C=C/c1cccn1Cc1ccccc1Cl |  | Q475A | RNase H / radiometric | 12.3 |
| CCN1c2ncc(CCOc3ccc(-c4ccc(CC(=O)O)c(C)c4)cc3C)cc2C(=O)N(C)c2cccnc21 | IIIB | RT-K103N Y181C | nucleotide incorporation / radiometric | 1 |
| CCc1ccc(-n2c(CF)nnc2SCC(=O)Nc2ccc(S(N)(=O)=O)cc2Cl)c2c1CCCC2 |  | RT-Y188L | nucleotide incorporation / radiometric | >2 |
| CCN1c2ncc(CCOc3ccc(-c4cc(C)cnc4N)cc3C)cc2C(=O)N(C)c2cccnc21 | IIIB | RT-K103N Y181C | nucleotide incorporation / radiometric | 1 |
| CCOC(=O)c1c(C(C)C)c(C#N)c(=N)n2ccccc12 |  | RT-Y181I |  | 1.62 |
| CC(C)=CCOc1cc(NC(=S)c2ccoc2C)ccc1Cl |  | RT-P236L |  | 0.34 |
| CC1C(Sc2nnnn2-c2cccc3ccccc23)C1c1ccccc1Cl |  | RT-K103N Y181C | fluorescence | ≥1.33 |
| Cc1cc(S(N)(=O)=O)ccc1NC(=O)COc1ccccc1C(=O)c1cc(Cl)cc(C#N)c1 | NNRTI-resistant | RT-Y188L | fluorescence | 3.1 |
| CCN1c2ncc(CCOc3ccc(CCC(=O)O)c4c3CCCC4)cc2C(=O)N(C)c2ccc(Cl)nc21 |  | RT-V106A | nucleotide incorporation / radiometric | >10 |
| CCN1c2ncc(CCOc3ccc(-c4ccc(C)[n+]([O-])c4C)cc3C)cc2C(=O)N(C)c2cccnc21 | IIIB | RT-K103N Y181C | nucleotide incorporation / radiometric | 1 |
| CCc1cc(CCc2nc3ccccc3o2)c(=O)[nH]c1C |  | RT-Y181W | nucleotide incorporation | 16.8 |
| Cc1c(Cc2ccccc2)nc(NCCCCN)[nH]c1=O |  | RT-Y181L |  | >10.3 |
| CCN1c2ncc(CCOc3ccc(C(=O)O)c4c3CCN(C(=O)OC)C4)cc2C(=O)N(C)c2cccnc21 |  | RT-V106A | nucleotide incorporation / radiometric | >10 |
| CCc1ccc(-n2c(Br)nnc2SCC(=O)Nc2ccc(C(=O)NCCO)cc2Cl)c2ccccc12 |  | RT-Y188L | nucleotide incorporation / radiometric | >1 |
| Nc1nc2c(ncn2[C@H]2CC[C@@H](COP(=O)(O)OP(=O)(O)OP(=O)(O)O)O2)c(=O)[nH]1 |  | RT-Y181C | nucleotide incorporation | 2.5 |
| CCCCCCNC(=O)c1ccc(NC(=O)CSc2nnc(Br)n2-c2ccc(CC)c3ccccc23)c(Cl)c1 |  | RT-Y188L | nucleotide incorporation / radiometric | >2 |
| CCOCn1c(Cc2ccccc2)c(C(C)C)c(=O)[nH]c1=O |  | RT-W229F | radiometric | 1.06 |
| Cc1ccc(-n2c(C)nnc2SCC(=O)Nc2ccc(S(N)(=O)=O)cc2Cl)c2c1CCCC2 |  | RT-Y188L | nucleotide incorporation / radiometric | >2 |
| CCN1c2ncc(CCOc3ccc(S(=O)(=O)NC(C)=O)c4ccccc34)cc2C(=O)N(C)c2cccnc21 |  | RT-K103N Y181C | nucleotide incorporation / radiometric | 1–10 |
| CCN1c2ncc(CCOc3ccc(-c4ccc(CC(=O)O)cc4)cc3C)cc2C(=O)N(C)c2cccnc21 | IIIB | RT-K103N Y181C | nucleotide incorporation / radiometric | 1 |
| CC(C)(C)c1ccc(-n2nnnc2SCC(=O)Nc2ccccc2Cl)c(Br)c1 |  | RT-K103N Y181C | fluorescence | >1.5 |
| CCc1ccc(-n2c(I)nnc2SCC(=O)Nc2ccc(S(N)(=O)=O)cc2Cl)c2ccccc12 |  | RT-Y188L | nucleotide incorporation / radiometric | >2 |
| CCN1c2ncc(CCOc3ccc(CC(=O)O)c4ccccc34)cc2C(=O)Nc2c(C)cc(Cl)nc21 |  | RT-V106A | nucleotide incorporation / radiometric | 1–10 |
| O=C(CSc1nnnn1-c1c(Cl)cccc1Cl)Nc1ccccc1[N+](=O)[O-] |  | RT-K103N Y181C | fluorescence | >2 |
| O=C1Nc2ccc(Cl)cc2C(C#CC2CCCCC2)(C(F)(F)F)O1 | A17 | RT-K103N Y181C | nucleotide incorporation | 2.53 |
| CCN1c2ncc(CCOc3ccc(-c4ccc(C)[n+]([O-])c4)cc3C)cc2C(=O)N(C)c2cccnc21 | IIIB | RT-K103N Y181C | nucleotide incorporation / radiometric | 1 |
| CCN1c2ncc(CCOc3ccc(C(C)C(=O)O)c4ccccc34)cc2C(=O)N(C)c2cccnc21 |  | RT-K103N Y181C | nucleotide incorporation / radiometric | 1–10 |
| C=CC1(C(F)(F)F)OC(=O)Nc2ccc(Cl)cc21 | A17 | RT-K103N Y181C | nucleotide incorporation | 23.1 |
| COc1cccc2c(-n3c(Br)nnc3SCC(=O)Nc3ccc(C(=O)O)cc3Cl)cccc12 |  | RT-Y181C | nucleotide incorporation / radiometric | >1 |

4 of the rows above, restated:

{"SMILES": "CCN1c2ncc(CCOc3ccc(-c4ccc(O)c(C(=O)O)c4)cc3C)cc2C(=O)N(C)c2cccnc21", "strain or isolate": "IIIB", "mutations": "RT-K103N Y181C", "read by": "nucleotide incorporation / radiometric", "result": ">1"}
{"SMILES": "CCN1c2ncc(CCOc3ccc(/C=C(\\C)C(=O)O)c4ccccc34)cc2C(=O)N(C)c2cccnc21", "mutations": "RT-Y188L", "read by": "nucleotide incorporation / radiometric", "result": ">10"}
{"SMILES": "CCN1c2ncc(CCOc3ccc(-c4ccc(CC(=O)O)cc4)cc3C)cc2C(=O)N(C)c2cccnc21", "strain or isolate": "IIIB", "mutations": "RT-K103N Y181C", "read by": "nucleotide incorporation / radiometric", "result": "1"}
{"SMILES": "Cc1ccc(-n2c(SCC(=O)Nc3ccc(S(=O)(=O)NCCC(=O)O)cc3Cl)nnc2C(F)F)c2c1CCCC2", "mutations": "RT-Y181C", "read by": "nucleotide incorporation / radiometric", "result": ">2"}

Conditions beyond the fields shown may differ between rows. Two numbers with a dash give a range or band. Blank or dashed fields: not listed here.